Source: the supplement of paper PMC9931576
Human monoclonal antibodies against the spike receptor-binding domain (heavy:light variable regions). IC50 against pseudoviruses bearing the spike of naturally observed variants; lower = stronger; >10 µg/ml means not reached at the top dose. No active / inactive call. The stated detection limit is 0.0005 µg/ml; values near or below 0.001 µg/ml lie at the floor of the assay.

Tests used:
Experiment in all cases: pseudovirus neutralization IC50; higher = weaker neutralization
[1] = target: SARS-CoV-2 Omicron BA.1 spike pseudovirus
Method: (§1)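 Single-round VSV luciferase pseudovirus mixed with antibody dilutions for 1 h and put on Huh-7 cells for about a day; IC50 from the dose curve.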

[2] = target: SARS-CoV-2 Omicron BA.2 spike pseudovirus
Method: as §1

[3] = target: SARS-CoV-2 Omicron BA.2.75 spike pseudovirus
Method: as §1

[4] = target: SARS-CoV-2 Omicron BA.5 spike pseudovirus
Method: as §1

[5] = target: SARS-CoV-2 Omicron BQ.1.1 spike pseudovirus
Method: as §1

[6] = target: SARS-CoV-2 Omicron XBB spike pseudovirus
Method: as §1

[7] = target: SARS-CoV-2 early D614G spike pseudovirus
Method: as §1

Measured: pseudovirus neutralization IC50

B1: BD55-44 (protein)
chain 1: QVQLQESGPGLVKPSGTLSLTCAVSGGSISSSNWWSWVRQPPGKGLEWIGEIFQSGSTSYNPSLSSRVTISVDKSKNQFSLNLRSVTAADTAVYFCARDEGERYCNSGSCYSRLDYWGQGTLVTVSS
chain 2: DIQMTQSPSSLSASVGDRVTITCRASQGISNYLAWFQQRPGKAPKSLIYAASNLQSGVPSRFSGSGSGTEFTLTISSLQPEDFATYYCQQYDIYPPTFGPGTKVDVK
0.11 µg/mL: [1]
0.006 µg/mL: [7]
0.379 µg/mL: [2]
> 10 µg/mL: all other assays above

B2: BD55-862 (protein)
chain 1: EVQLVESGGDLVQPGGSLRLSCAASGFTFRSYEMNWVRQAPGKGLEWVSYIGSSGNEIYYADSVKGRFTVSRDNAKNSLFLQMNSLRAEDTAVYYCARGGGTATITFDSWGQGTLVTVSS
chain 2: SYVLTQPPSVSVAPGKTARITCGGSNIGGKSVHWYQQKPGQAPVLVIYYDDDRPSGIPERFSGSNSGNTATLTISRVEAGDEADYFCQVWDRSTEHYVFGAGTRVTVL
> 10 µg/mL: all assays above

B3: BD55-864 (protein)
chain 1: QVQLQQWGAGLLKPSETLSRTCAVYGGSFSGYYWTWIRQSPGKGLEWIGEINDSGSASYSPSLMSRVTISVDPSKNQFSLELRSVTAADTAVYFCARTVNRDRSGYVWFFDYWAQGTLVTVSS
chain 2: DIQMTQSPSSLSASVGDSVTITCRASQDITTYLNWYQQKPGQAPKLLIYATSTLQSGVPFRFRGSGFEMYFTLTINSLQPEDFATYYCQQSYNIPYTFGQGTKLEIK
> 10 µg/mL: all assays above

B4: BD-702 (protein)
chain 1: EVQLVESGGGLVQPGGSLRLSCAASGFTFSNYNMNWVRQAPGKGLEWVSFISSSSTKYYADSVKGRFTISRDNAKNSLYLQMNSLRDEDTAIYYCARLKYTYGEIDYWGQGTLVTVSS
chain 2: NFMLTQPHSVSESPGKTVTISCTGSSGAIATNYVQWYQQRPGSAPTTVIYEDNQRPSGVPDRFSGSIDSSSNSASLTISGLKTEDEADYYCQSYNNFNWVFGGGTKLTVL
0.476 µg/mL: [7]
> 10 µg/mL: all other assays above

B5: BD55-878 (protein)
chain 1: QLQLQESGPGLVKPSETLSLTCTVSGGSISSRCSYWGWIRQPPGKGLEWIGSMYYSGATYYNPSLKSRVTISVDTSNNQFSLKLSSVTAADTALYYCAREEGHCSSWGGVYFDNWGQGTLVTVSS
chain 2: QSVLTQPPSVSGVPGQRVTISCTGSSSNIGAGYDVHWYQHPPGTAPKLLIYGNNNRPSGVPDRFSGSKSGASASLAITGLQAEDEADYYCQSYDTSLTARVFGGGTRLTVL
> 10 µg/mL: all assays above

B6: BD55-874 (protein)
chain 1: QVQLVQSGAEVKKPGASVKVSCKASGYIFTAYFILWVRQAPGHGLEWVGWINPNSGSTYYAQKFQGRITLTRDTSISTAYMDLSRLTSDDTAVYYCAREKQLDHYGMDVWGRGTTVTVSS
chain 2: SYELTQPPSVSVSPGQTVSITCSGDKLGFKYVCWYQQKPGQSPVLVIYQDTKRPSGIPERFSGSNSGNTATLTISGTQSMDEADYYCQAWDTSTGVFGGGTKLTVL
> 10 µg/mL: all assays above

B7: BD-708 (protein)
chain 1: QVQLVESGGGVVQPGRSLRLSCAASGFTLSNYAMHWVRQAPGTGLEWVAVISDDGSIKFYADSVKGRFTISRDNSKNTLYLQMNSLRAEDTAVYYCARDGDDSSGYFFDYWGQGTLVTVSS
chain 2: DIQMTQSPSSLSASVGDRVTITCRASQGINNFLAWYQQKPGKAPKLLLYSASRLESGVPSRFSGSGSGTDYTLTISSLQPEDFATYYCQQYYSTLALTFGGGTKVEIK
0.468 µg/mL: [7]
> 10 µg/mL: all other assays above

B8: BD55-814 (protein)
chain 1: QLQLQESGPRLVKPSETLSLTCTVSGGSISSSSYYWGWIRQPPGKGLEWIGSIYYTGSTYYNPSLKSRVTMSVDTSNNQFSLKLSSVTAADTAVYYCARQYSGYDLQDYWGQGTLVTVSS
chain 2: DIQMTQSPSTLSASVGDRVTITCRASQSISSWLAWYQQKPGKAPKLLIYMASNLESGVPSRFSGSGSGTEFTLTISSLQPDDFATYYCQEYNSYSRTFGQGTKVEVK
> 10 µg/mL: all assays above

B9: BD55-887 (protein)
chain 1: QVQLVQSGAEMKKPGSSVKVSCKASGGTFSSYVISWVRQAPGQGLEWMGRIIPALGIPNYAQNFQGRVTITADKSTSTAYMELSSLRSEDTAVYYCARDRGMRDNWFDPWGQGTLVTVSS
chain 2: QSVLTQPPSVSGAPGQRVTISCTGSSSNIGAGYDVHWYQQLPGTAPKLLIYANNNRPSGVPDRFSGSKSDTSASLAITGLQAEDEADYYCQSYDSSLSGEVFGTGTKVTVL
0.21 µg/mL: [3]
0.411 µg/mL: [2]
0.22 µg/mL: [7]
0.447 µg/mL: [1]
> 10 µg/mL: all other assays above

B10: BD55-842 (protein)
chain 1: EVQLVQSGAELKKPGQSLKISCHGSGYTFTTNWIAWVRQMPGKGLEWMGVIYPGDSDTRYSPSLQGQVTISVDKSISTAYLQWSSLEASDSGMYYCARGGSTYTSAWQDDGFDVWGPGTMVTVSS
chain 2: SYELTQAPSVSVSPGQAANISCSGDKLGYRYVSWYQQKPGQSPVLVIYQDNRRPSGIPERFSGSNSGNTATLTISGTQASDEADYSCLTWDISTGVFGGGTKLTVL
> 10 µg/mL: all assays above

B11: BD55-867 (protein)
chain 1: QVQLVQSGAEVKKPGASVRVSCKASGYTFTTYGISWVRQAPGQGLEWMGWISAYNGYTNYAQKLQGRVTMTTDTSTSTAYMELRSLRSDDTAVYYCARDLKQQLVYNWFDPWGQGTLVTVSS
chain 2: SYELTQPPSVSVSPGQTARITCSGDALPKQYAYWYQQKPGQAPVLVIYKDSERPSGIPERFSGSSSGTTVTLTISGVQAEDEADYYCQSADSSGTSPVVFGGGTKLTVL
> 10 µg/mL: all assays above

B12: BD-715 (protein)
chain 1: EVQLVESGGGFVQPGRSLRLSCAASGFIMDDYAMHWVRQAPGKGLEWVSGISWNSGTRGYADSVKGRFTVSRDNAKNSFYLQMNSLRAADTAVYYCAKDHGPWIAANGHYFDYWGQGTLVTVSS
chain 2: QSVLTQPPSASGTPGQRVTISCSGSKSNIGSNPVNWYQQLPGTAPKLLIYSNNERPSGVPARFSGSKSGTSASLAISGLQSEDEADYYCVTWDDSLNGWVFGGGTKLTVL
0.006 µg/mL: [7]
> 10 µg/mL: all other assays above
